Like-named read-outs stand apart in the source and are kept apart here.
Tests used:
[1] = molecular target: rat brain membrane K channels (delayed rectifier, primarily Kv1.2) (rat) (UniProt P63142)
[2] = molecular target: rat brain membrane K channels (delayed rectifier, primarily Kv1.2) (rat) (UniProt P63142); test: 125I-DTX displacement, rat brain membranes
[3] = molecular target: rat brain membrane K channels (delayed rectifier, primarily Kv1.2) (rat) (UniProt P63142); remark: listed apart in the source
[4] = molecular target: rat brain membrane K channels (delayed rectifier, primarily Kv1.2) (rat) (UniProt P63142); remark: listed apart in the source
[5] = molecular target: Kv1.3 potassium channel of human T lymphocytes (human) (UniProt P22001)
[6] = molecular target: rat brain membrane K channels (delayed rectifier, primarily Kv1.2) (rat) (UniProt P63142); remark: listed apart in the source
[7] = molecular target: cloned Kv1.3 channel, wild type; test: double-mutant cycle analysis, electrophysiology

Substance | IC50 ratio (analog IC50/ShK IC50) [2] | free energy difference of binding [2] [kcal/mol] | other results
ShK F15 p-azido-Phe (peptide) |  |  | IC50 ratio (analog IC50/ShK IC50) [1]: 1.4; free energy difference of binding [1]: 0.2 kcal/mol
ShK F27A (peptide) | 15.3 | 1.59 | 
ShK H19K (peptide) | 2.6 | 0.56 | IC50 ratio (analog IC50/ShK IC50) [1]: 2.6; free energy difference of binding [1]: 0.56 kcal/mol
ShK K22E (peptide) | 726 | 3.86 | IC50 ratio (analog IC50/ShK IC50) [3]: 726; free energy difference of binding [3]: 3.86 kcal/mol
ShK K30A (peptide) | 5.3 | 0.98 | 
ShK L25A (peptide) | 1.4 | 0.2 | 
ShK Q16A (peptide) | 1 | 0 | 
ShK Q16E (peptide) | 2.8 | 0.6 | 
ShK R11A (peptide) | 2 | 0.41 | IC50 ratio (analog IC50/ShK IC50) [4]: 2; free energy difference of binding [4]: 0.41 kcal/mol
ShK R11E (peptide) | 30.8 | 2.01 | IC50 ratio (analog IC50/ShK IC50) [4]: 30.8; free energy difference of binding [4]: 2.01 kcal/mol
ShK R11Q (peptide) |  |  | equipotent molar ratio (analog IC50/ShK IC50) for block of Kv1.3 current [5]: 42
ShK R24A (peptide) |  |  | equipotent molar ratio (analog IC50/ShK IC50) for block of Kv1.3 current [5]: 2.4
ShK S20A (peptide) | 5.9 | 1.04 | 
ShK T13A (peptide) | 1.7 | 0.31 | 
ShK T34A (peptide) | 1 | 0 | 
ShK Y23A (peptide) | 108 | 2.74 | IC50 ratio (analog IC50/ShK IC50) [6]: 108; free energy difference of binding [6]: 2.74 kcal/mol; increase in the relative free energy of binding [2]: > 2.8 kcal/mol
ShK toxin (synthetic, wild type) (peptide) |  |  | coupling energy (ΔΔG) of the mutant cycle Kv1.3(D386→K)-ShK(K22→Nle) [7]: 0.053 kcal/mol; coupling energy (ΔΔG) of the mutant cycle Kv1.3(D386→K)-ShK(R11→A) [7]: 1.4 kcal/mol

Source: US6077680A (dated 2000)
